“And” between values parts separate entries of the source, which are not always exact repeats. Equal values may be shown once.

The values that follow come from paper PMC8206078, “Identification of pyrogallol as a warhead in design of covalent inhibitors for the SARS-CoV-2 3CL protease” (Nature Communications, 2021).

One experiment addresses SARS-CoV-2 3CLpro (Severe acute respiratory syndrome coronavirus 2, UniProt P0DTD1). As to the kind of experiment: FRET-based protease assay, SARS-CoV-2 3CLpro. It is filed as biochemical. The settings on record: for IC50: single independent experiment.
Experiment [1] relates to SARS-CoV-2 replication in Vero E6 cells. As to the kind of experiment: Cell-based antiviral activity assay (qRT-PCR of viral copies in supernatant). Conditions: single independent experiment.

For the molecule `CCOc1cc(O)c2c(=O)c(O)c(-c3cc(O)c(O)c(O)c3)oc2c1`, the half-maximal inhibitory concentration (IC50) at SARS-CoV-2 3CLpro is 0.67 µM and 0.79 µM and 0.77 µM. Also, in experiment [1], the EC50 was 47.6 µM and 42 µM and 60.1 µM.

Take `CC(C)CCOc1cc(O)c2c(=O)c(O)c(-c3cc(O)c(O)c(O)c3)oc2c1`: at SARS-CoV-2 3CLpro (50 µM, individual replicates of independent experiments), the “inhibition ratio (%)” value was 85.5333% and 82.1542%. In addition, the IC50 against SARS-CoV-2 3CLpro was 2.1 µM and 1.84 µM and 1.81 µM. In addition, the EC50 in experiment [1] was 33.5 µM and 32.1 µM and 31 µM.
